Measurements taken from PMC8692891, “Native CGRP Neuropeptide and Its Stable Analogue SAX, But Not CGRP Peptide Fragments, Inhibit Mucosal HIV-1 Transmission” (Frontiers in Immunology, 2021).

What was measured:
[1] = system: LC-T-cell conjugates in inner foreskin tissue explants; test: LC-T-cell conjugate formation in inner foreskin tissue explants ex-vivo; type: cell-based, human; conditions: explants pre-treated 24 h at 1 μM, polarized inoculation with HIV-1-infected PBMCs 4 h; flow cytometry; n = 4
Protocol: (§1) For infection experiments, round (8 mm diameter) inner foreskin tissue pieces were placed in 24-well plates and incubated submerged for 24 h at 37°C with 1 ml complete RPMI medium, alone or supplemented with CGRP or SAX (1 μM, four explants per condition). The tissues were next washed, transferred to two-chamber transwell inserts (Sigma), and inoculated in a polarized manner for 4 h at 37°c with either non-infected or HIV-1 (V29)-infected PBMCs (in duplicates), as we described ([11], [12]).
Epidermal cell suspensions were prepared immediately after inoculation, using enzymatic digestion with dispase/trypsin as we described ([11], [12]). Pooled cells of each duplicate were resuspended in PBS, transferred to 96 round-bottom well plates and stained for 30 min on ice with 10 μl of fluorescein isothiocyanate (FITC)-conjugated mouse-anti-human CD1a, PE-conjugated mouse-anti-human CD8 and allophycocyanin (APC)-conjugated mouse-anti-human CD3 (BD Pharmingen) Abs, diluted in PBS in a final volume of 50 μl/well.
Figure 6 CGRP and SAX inhibit mucosal HIV-1 transmission in human mucosal tissues ex-vivo. […] Images are representative of n = 3 tissues; broken lines denote the basement membranes and scale bar = 20 μm; E, epithelium and S, stroma. (B, C) Inner foreskin tissue explants were left untreated or pre-treated with CGRP or SAX (1 μM) for 24 h at 37°C. […]

[2] = system: langerin surface expression in MDLCs; test: Langerin surface expression in MDLCs (flow cytometry); type: cell-based, human; conditions: MDLCs treated 24 h, -log molar, n = 5
Protocol: (§2) MDLCs (10^5/well in 96 round-bottom well plates) were treated for 24 h at 37°C (200 μl/well final) with the indicated molar concentrations of CGRP, SAX or CGRP fragments. The CGRP receptor antagonist BIBN4096 was added 15 min before agonists. For langerin surface expression, MDLCs were washed and stained for 20 min on ice in a final volume of 50 µl PBS with a phycoerythrin (PE)-conjugated mouse monoclonal Ab against human langerin (clone DCGM4, Beckman Coulter), or matched isotype control. For HIV-1 trans-infection, MDLCs were washed and pulsed with HIV-1 ADA (1ng p24 corresponding to multiplicity of infection of 0.2) for 4 h. MDLCs were next incubated with autologous CD4+ T-cells or with green fluorescent protein (GFP)-reporter T-cells, and HIV-1 replication was measured in the co-culture supernatants using p24 ELISA (Fujirebio) or by evaluating GFP fluorescent by flow cytometry, as we described ([13]–[15]). Fluorescent profiles were acquired using a Guava easyCite and analyzed with the InCyte software (Merck-Millipore).
(§3) Data was analyzed using Prism software (GraphPad). Concentration-response curves were analyzed with the [log(agonist) vs. response (three parameters)] model for langrin upregulation and the [log(inhibitor) vs. normalized response − variable slope] model for HIV-1 trans-infection inhibition. […] Statistical significance was analyzed with the two-tailed Student’s t-test. […]

HIV-1 ADA = test: MDLCs-mediated HIV-1 trans-infection to CD4+ T-cells; type: cell-based; conditions: MDLCs treated 24 h
Protocol: as §2, §3

[3] = system: HIV-1 (V29)-infected PBMCs; test: HIV-1 infection of dermal T-cells in inner foreskin tissue explants ex-vivo; type: cell-based; conditions: explants pre-treated 24 h at 1 μM, inoculated 4 h, further three days incubation; flow cytometry; n = 4
Protocol: as §1
Dermal cell suspensions were prepared following washing of the explants, additional incubation for three days at 37°C submerged in 1 ml fresh medium, and subsequent enzymatic digestion with collagenase/DNase as we described ([11], [12]). Pooled cells of each duplicate were surface stained as above using FITC-conjugated mouse-anti-human CD3 Ab (Pharmingen), fixed, permeabilized, and stained for 30 min at room temperature with 1:160 dilution of PE-conjugated mouse-anti-human Ab to HIV-1 p24 and core antigens (Beckman Coulter). Fluorescent profiles were recorded using a Guava easyCyte and InCyte software.
Figure 6 CGRP and SAX inhibit mucosal HIV-1 transmission in human mucosal tissues ex-vivo. […] Images are representative of n = 3 tissues; broken lines denote the basement membranes and scale bar = 20 μm; E, epithelium and S, stroma. […]

HIV-1 JRCSF = test: Vaginal HIV-1 challenge of humanized BLT mice; type: in vivo; conditions: n = 5 per group
Protocol: Humanized female bone-marrow/liver/thymus (BLT) mice were prepared, inoculated and examined for HIV-1 infection at the Ragon Institute Human Immune System Mouse Program, according to their established protocols (see https://www.ragoninstitute.org/research/services/humanized-mouse/). Expression of human langerin was determined by immunohistochemistry of 4 μm vaginal tissue paraffin sections as we described ([12]), using goat-anti-human langerin Ab (R&D), the LSAB2-HRP System with DAB as substrate (Dako) and counterstaining with hematoxylin. For infection experiments, CGRP (500 nM or 5 μM) in 30 μl sterile PBS or PBS alone were topically applied onto the vaginal epithelium for 4 h, followed by topical vaginal challenge with 2 × 10^4 TCID50 HIV-1 JRCSF.
Figure 1 CGRP limits mucosal HIV-1 transmission in-vivo. (A) CGRP (1 μM) or PBS were topically applied intravaginally in normal female BALB/c mice (n = 3 animals per group). Vaginal tissue sections were examined by immunohistochemistry for the presence of CD3+ T-cells, B220+ B cells and F4/80+ macrophages. Shown are mean ± SEM cell densities expressed as cells/mm^2 (of n = 3 independent experiments) in either the vaginal epithelium or stroma. […]

Q: What does the source list for calcitonin gene-related peptide [CGRP]?
A: HIV-1-induced increase in LC-T-cell conjugates [1]: completely abrogated this increase; pEC50 [95% CI], increase in langerin surface expression [2]: 10.6 [11.5–9.7]; pIC50 [95% CI], inhibition of MDLCs-mediated HIV-1 trans-infection (HIV-1 ADA; pulsed with HIV-1 ADA 4 h, 7 days with autologous CD4+ T-cells, p24 ELISA, -log molar, n = 5): 10.2 [10.9–9.4]; Inhibition of MDLCs-mediated HIV-1 trans-infection (in words) (HIV-1 ADA; p24 ELISA or GFP-reporter T-cells by flow cytometry): strongly inhibited; HIV-1 infection of dermal T-cells (p24+CD3+) [3]: completely blocked such infection; CD4+ T-cells counts (HIV-1 JRCSF; single application of 500 nM or 5 μM for 4 h before challenge, weeks 4, 6, 24 and 26): significantly maintained higher; Plasma viral loads (HIV-1 JRCSF; single application of 500 nM or 5 μM in 30 μl PBS for 4 h before challenge, weeks 4 and 6): dose dependently and significantly restricted the increase
